Compound potency records, mixed from different reports. Data source: NIAID ChemDB in PubChem.

Shared fields: whole-cell or culture tests; organism: Influenza A virus

ECn: concentration that inhibits the pathogen or its effect by n%.

compound,cells,read-out,strain or isolate,method,value
CC=NC(=N)c1nc(-c2cccc(C)c2)n(C/C=C/c2ccccc2)n1,MDCK,EC50,Ishikawa,cytopathic effect,>20 µg/mL
Nc1nc(Cl)cc(NCC2(CO)CCC(O)C2)n1,MDCK,EC50,H1N1 A/PR/8/34,plaque count,>110 µM
CC(=O)N[C@H]1[C@H]([C@H](O)[C@H](O)CO)OC(C(=O)O)=C[C@@H]1N=C(N)N,MDCK,EC50,H1N1 A/TEXAS/36/91,plaque count,0.07 µM
CCC(C)N1C2CCC23CC[C@H](NC(=O)c2cc(Cl)ccc2O)CC13,MDCK,EC50,H1N1 A/WSN/33 (H1N1),plaque count,>50 µg/mL
CC#Cc1cn([C@@H]2O[C@H](COP(=O)(O)OCCCCCCCCCCCC)[C@@H](O)[C@@H]2O)c(=O)[nH]c1=O,MDCK,EC50,H1N1 A/Sweden/3/50,plaque count,>100 µM
C[C@H](CO)[C@@H](OC(=O)N(CCCN)CCCCN)[C@@H]1OC(C(=O)O)=C[C@H](N=C(N)N)[C@H]1NC(=O)O,MDCK,EC50,H3N2 AICHI,plaque count,0.018 µg/mL
CCOc1ncn(-c2ccc(NC(=S)Nc3ncccn3)cc2)n1,MDCK,EC50,Ishikawa,cytopathic effect,>8 µg/mL
CC=NC(=N)c1nc(-c2ccccc2)n(C/C=C/c2ccccc2)n1,MDCK,EC50,Ishikawa,cytopathic effect,>20 µg/mL
NS(=O)c1ncnc2c1ncn2[C@@H]1O[C@H](CO)[C@@H](O)[C@@H]1O,,EC50,,cytopathic effect,>320 µM
CCNC1C2CCCC1[C@@H](C)C2,MDCK,EC50,,plaque count,10 µM
CC(=O)N[C@H]1[C@H]([C@H](OC(=O)NCCCCCCNC(=O)CCC(NC(=O)C(F)(F)F)C(=O)NCC(=O)NCCCCCCNC(=O)O[C@@H]([C@@H]2OC(C(=O)O)=C[C@H](N=C(N)N)[C@H]2NC(C)=O)[C@H](O)CO)[C@H](O)CO)OC(C(=O)O)=C[C@@H]1N=C(N)N,MDCK,EC50,A/Victoria/3/75 B010,cytopathic effect,0.002 µg/mL
CN(C)C(=O)COC(=O)Cc1ccc(OC(=O)c2ccc(N=C(N)N)cc2)cc1.COS(=O)(=O)O,MDCK,EC50,Influenza A/Ishikawa/7/82 (H3N2),cytopathic effect,2.2 µg/mL
COC1(OC)CC(CO)(CNc2cc(Cl)nc(N)n2)C1,MDCK,EC50,H1N1 A/PR/8/34,plaque count,>99 µM
Nc1ncnc2c1ncn2[C@@H]1O[C@H](C=NO)[C@@H](O)[C@H]1O,MDCK,EC50,Ishiwara,cytopathic effect,0.8 µg/mL
CC1=C(C)C2(C)C(N)C1[C@H](C(C)C)C[C@H]2C,MDCK,EC50,,plaque count,12 µM
CC(N)C12CC3CC(CC(C3)C1)C2,MDCK,EC50,H1N1 A/Victoria/36/88,ELISA,0.02 µg/mL
Cc1ccc(O)c(C(=O)N[C@@H]2CCC34CCC3N(C)C4C2)c1,MDCK,EC50,H1N1 A/WSN/33 (H1N1),plaque count,>50 µg/mL
CC[C@@H]1C2CCCC(C2N)[C@@H]1CC,MDCK,EC50,,plaque count,>100 µM
Nc1nccc(NCC2(CO)CCC2)n1,MDCK,EC50,H1N1 A/PR/8/34,plaque count,300 µM
CC1=C(C)C2C(N)C1CCC2(C)C,MDCK,EC50,,plaque count,>20 µM
Cc1ccc(C2NC(=O)C3NC(=O)C(c4cc(O)cc(O)c4)NC(=O)C(NC(=O)C(N)Cc4ccc(O)cc4)Cc4c[nH]c5cc(ccc45)-c4cc3cc(c4O)Oc3ccc(cc3)CC(C(=O)NC(C(=O)O)c3ccc(O)c(O)c3)NC2=O)cc1Cl,MDCK,EC50,A/Victoria,,3.6 µg/mL
N#Cc1cc(NC(=O)c2ccccc2)c(=O)n2c1[nH]c1ccccc12,MDCK,EC50,A/Bangkok,plaque count,2 µg/mL
CC(C)C1CC2C(N)C(C1)[C@H](C)[C@@H]2C,MDCK,EC50,,plaque count,34.3 µM
CCOC(=O)c1cc(C#N)c2[nH]c3ccccc3n2c1=O,MDCK,EC50,A/Bangkok,plaque count,200 µg/mL
CC#Cc1cn([C@@H]2O[C@H](COP(=O)(O)OCCCCCCCCCCCCCCCC)[C@@H](O)[C@@H]2O)c(=O)[nH]c1=O,MDCK,EC50,H1N1 A/Sweden/3/50,plaque count,>10 µM
CCC(CC)O[C@@H]1C=C(C(=O)O)C[C@H](N)[C@H]1NC(C)=O,MDCK,EC50,Influenza A/Shandong/09/03 (H3N2),cytopathic effect,0.012 µM
Cc1ccc(O)c(C(=O)N[C@@H]2CCC34CCC3N(C(C)C)C4C2)c1,MDCK,EC50,H1N1 A/WSN/33 (H1N1),plaque count,>50 µg/mL
CCCC(CCC)C(NC(C)=O)C1C(N=C(N)N)CC(C(=O)O)C1O,MDCK,EC50,H3N2 A/X-31,,<0.01 µM
O=c1ccn([C@@H]2O[C@H](CO)[C@@H](O)[C@H]2F)c(=O)[nH]1,MDCK,EC50,A/Sweden,plaque count,>100 µM
CC(=O)N[C@H]1[C@H]([C@H](O)[C@H](O)CO)OC(C(=O)O)=C[C@@H]1N=C(N)N,MDCK,EC50,H1N1 A/TEXAS/36/91,neutral red,0.018 µM
NS(=O)(=O)c1ncnc2c1ncn2[C@H]1C[C@H](O)[C@@H](CO)O1,,EC50,,cytopathic effect,>320 µM
Nc1nc2c(ncn2COC(CO)CO)c(=O)[nH]1,VERO,EC50,,cytopathic effect,>400 µg/mL
Cc1ccc(O)c(C(=O)NCCN2CCC(C)[C@@H]3CCCC[C@@H]32)c1,MDCK,EC50,H1N1 A/WSN/33 (H1N1),plaque count,>50 µg/mL
C=C(N=CC)c1nc(-c2ccc(OC)cc2)n([C@@H]2O[C@H](CO)[C@@H](O)[C@H]2O)n1,MDCK,EC50,Ishikawa,cytopathic effect,>200 µg/mL
C[C@@]1(O)CC2CCCC1C2N,MDCK,EC50,,plaque count,>100 µM
NS(=O)(=O)c1ncnc2c1ncn2[C@@H]1O[C@H](CO)[C@@H](O)[C@@H]1O,,EC50,,cytopathic effect,>320 µM
C/C(=C\CCC(C)[C@H]1CC[C@@]2(C)C3=CCC4C(C)(C)[C@@H](O)CC[C@]4(C)C3=CC[C@]12C)CO,MDCK,EC50,,,>220 µM
Cc1ccc(O)c(C(=O)NCCN2[C@H](C)CCC[C@@H]2C)c1,MDCK,EC50,H1N1 A/WSN/33 (H1N1),plaque count,1.8 µg/mL
C[C@H](CO)[C@@H](OC(N)=O)[C@@H]1OC(C(=O)O)=C[C@H](N)[C@H]1NC(=O)O,MDCK,EC50,H3N2 AICHI,plaque count,0.47 µg/mL
CCOc1ncn(-c2ccc(NC(=S)Nc3cccc(O)c3)cc2)n1,MDCK,EC50,Ishikawa,cytopathic effect,100 µg/mL
CC=NC(=N)c1nc(-c2ccc(OC)cc2)n(COCCO)n1,MDCK,EC50,Ishikawa,cytopathic effect,>200 µg/mL
CC#Cc1cn([C@@H]2O[C@H](COP(=O)(O)OCC(Cl)(Cl)Cl)[C@@H](O)[C@@H]2O)c(=O)[nH]c1=O,MDCK,EC50,H1N1 A/Sweden/3/50,plaque count,>100 µM
Cc1cc(NCC2(CO)CCC2)nc(N)n1,MDCK,EC50,H1N1 A/PR/8/34,plaque count,>140 µM
N#Cc1cc(C#N)c2[nH]c3ccccc3n2c1=O,MDCK,EC50,Influenza A/Ishikawa/7/82 (H3N2),plaque count,40 µg/mL
COc1ccccc1C(=S)NC[C@@]1(C)C[C@@H](O)CC(C)(C)C1,MDCK,EC50,H1N1 A/WSN/33,cytopathic effect,>10 µg/mL
Nc1nc2c(ncn2[C@@H]2O[C@H](CO)[C@@H](O)[C@H]2F)c(=O)[nH]1,CEF,EC50,A/NWS/33/H1N1,plaque count,0.8 µM
C[C@@H]1C2CCCC(C2N)[C@@H]1c1ccccc1,MDCK,EC50,,plaque count,>25 µM
Cc1ccc(C(=S)NC[C@@]2(C)C[C@H](O)CC(C)(C)C2)cc1,MDCK,EC50,H1N1 A/WSN/33,cytopathic effect,>10 µg/mL
Nc1ncc(N)c(NCC2(CO)CC(Cc3ccccc3)C2)n1,MDCK,EC50,H1N1 A/PR/8/34,plaque count,5.7–18 µM
CCOC(=O)c1ccc(OC(=O)CCCCCN=C(N)N)cc1.COS(=O)(=O)O,MDCK,EC50,Influenza A/Ishikawa/7/82 (H3N2),cytopathic effect,230 µg/mL
CCCOc1ncn(-c2ccc(NC(=S)NC3O[C@H](CO)[C@@H](O)[C@H](O)[C@H]3O)cc2)n1,MDCK,EC50,Ishikawa,cytopathic effect,>200 µg/mL
CC1(CO)CCC(Cc2nc3ncnc(N)c3[nH]2)C1(C)C,MDCK,EC50,H3N2 X31,cytopathic effect,>250 µg/mL
CCC(CC)[C@H](NC(C)=O)[C@@H]1C[C@@H](C(=O)O)C[C@H]1N=C(N)N,MDCK,EC50,Influenza A/Washington/05/96 (H3N2),,0.01 µM
N#CNc1nncs1,MDCK,EC50,A/Brazil/11/78,plaque count,0.7 µg/mL
CCOC(=O)c1cc(C(=O)O)c(=O)n2c1[nH]c1ccccc12,MDCK,EC50,Influenza A/Ishikawa/7/82 (H3N2),plaque count,40 µg/mL
CC=NC(=N)c1nc(-c2ccccc2)n(COCCO)n1,MDCK,EC50,Ishikawa,cytopathic effect,>100 µg/mL
CC1(C)Oc2cc(O)c(C(=O)/C=C/c3ccccc3)c(O)c2CC1O,,EC50,Panama,,100 µg/mL
CCCN(CCC)C(=O)O[C@@H]([C@@H]1OC(C(=O)O)=C[C@H](N)[C@H]1NC(=O)O)[C@H](C)CO,MDCK,EC50,H3N2 AICHI,plaque count,2.95 µg/mL
CC1(CO)CCC(Cn2nnc3c(Cl)nc(N)nc32)C1(C)C,MDCK,EC50,H3N2 X31,cytopathic effect,>50 µg/mL
CCC(CC)O[C@@H]1C=C(C(=O)O)C[C@H](N)[C@H]1NC(C)=O,MDCK,EC50,Influenza A/Sydney/05/97 (H3N2),visual reading,0.18 µM
CC1(CO)CCC(Cn2cnc3c(Cl)nc(N)nc32)C1(C)C,MDCK,EC50,H3N2 X31,cytopathic effect,>50 µg/mL
Nc1ccn([C@@H]2C[C@H](CO)[C@@H](O)[C@H]2O)c(=O)n1,MDCK,EC50,,cytopathic effect,4.5 µg/mL
CC=NC(=N)c1nc(-c2cccc(C)c2)n(Cc2ccccc2)n1,MDCK,EC50,Ishikawa,cytopathic effect,>20 µg/mL
CC1(CO)CCC(Cn2cnc3c(=O)[nH]c(N)nc32)C1(C)C,MDCK,EC50,H3N2 X31,cytopathic effect,>50 µg/mL
CC1(CO)CCC(Cn2nnc3c(Cl)ncnc32)C1(C)C,MDCK,EC50,H3N2 X31,cytopathic effect,>50 µg/mL
CCON=C[C@H]1O[C@@H](n2cnc3c(N)ncnc32)[C@H](O)[C@@H]1O,MDCK,EC50,Ishiwara,cytopathic effect,0.8 µg/mL
Nc1nc2c(ccn2[C@@H]2C[C@H](CO)[C@@H](O)[C@@H]2O)c(=O)[nH]1,,MIC,Influenza A/Victoria/3/75 (H3N2),,>100 µg/mL
CCCCCCCNC(=O)O[C@@H]([C@@H]1OC(C(=O)O)=C[C@H](N)[C@H]1NC(=O)O)[C@H](C)CO,MDCK,EC50,H3N2 AICHI,plaque count,1.8 µg/mL
CCCOc1ncn(-c2ccc(NC(=S)NC34CC5CC(CC(C5)C3)C4)cc2)n1,MDCK,EC50,Ishikawa,cytopathic effect,20 µg/mL
CCC(CC)O[C@@H]1C=C(C(=O)O)C[C@H](N)[C@H]1NC(C)=O,MDCK,EC50,H1N1 isolate C28C,plaque count,0.01 µg/mL
CCOC(=O)c1cc(NC(=O)c2ccccc2)c(=O)n2c1[nH]c1ccccc12,MDCK,EC50,Influenza A/Ishikawa/7/82 (H3N2),plaque count,>40 µg/mL
Cc1cc(NCCCCCCCCNc2cc(C)nc3cc(N(C)C)ccc23)c2ccc(N(C)C)cc2n1,MDCK,EC50,Influenza A/Ishikawa/7/82 (H3N2),cytopathic effect,>500 µg/mL
CCCOc1ncn(-c2ccc(NC(=S)Nc3cccc(O)c3)cc2)n1,MDCK,EC50,Ishikawa,cytopathic effect,>100 µg/mL
CC#Cc1cn([C@@H]2O[C@H](COP(=O)(O)Oc3ccc(OC)cc3)[C@@H](O)[C@@H]2O)c(=O)[nH]c1=O,MDCK,EC50,H1N1 A/Sweden/3/50,plaque count,>100 µM
Cc1ccc(C)c(C(=S)NC[C@@]2(C)C[C@@H](O)CC(C)(C)C2)c1,MDCK,EC50,H1N1 A/WSN/33,cytopathic effect,>10 µg/mL
O=C(NCCN1CCC[C@@H]2CCCC[C@H]21)c1cc(Cl)ccc1O,MDCK,EC50,H1N1 A/WSN/33 (H1N1),plaque count,1.4 µg/mL
CCC,MDCK,EC50,Singapore/6/86 (H1),,>50 µM

Repeating the final 4 entries:

compound	cells	read-out	strain or isolate	method	value
CC#Cc1cn([C@@H]2O[C@H](COP(=O)(O)Oc3ccc(OC)cc3)[C@@H](O)[C@@H]2O)c(=O)[nH]c1=O	MDCK	EC50	H1N1 A/Sweden/3/50	plaque count	>100 µM
Cc1ccc(C)c(C(=S)NC[C@@]2(C)C[C@@H](O)CC(C)(C)C2)c1	MDCK	EC50	H1N1 A/WSN/33	cytopathic effect	>10 µg/mL
O=C(NCCN1CCC[C@@H]2CCCC[C@H]21)c1cc(Cl)ccc1O	MDCK	EC50	H1N1 A/WSN/33 (H1N1)	plaque count	1.4 µg/mL
CCC	MDCK	EC50	Singapore/6/86 (H1)		>50 µM

Two numbers with a dash give a range or band. Neighbouring rows are from separate reports. Blank or dashed fields: not listed here.